Measured values from several laboratories, pooled; numbers as filed in NIAID ChemDB.

Common to all: whole-cell or culture tests; organism: Candida albicans; measure: MIC

An empty or dashed field is not shown.

{"smiles": "CCCCCCCCCCCCC(OC)C(=O)O", "strain or isolate": "ATCC 14053", "value": "110 µM"}
{"smiles": "Cc1ccc(-c2cc(-c3ccc(Cl)cc3)nc(/N=C3\\C(=O)N(CN(C)C)c4ccc(Cl)cc43)n2)cc1", "value": "78.12 µg/mL"}
{"smiles": "CCC(C)C(NC)C(=O)NC1C(=O)OC(C(C)C)C(=O)OC(CC(C)C)C(=O)NC(C(C)CC)C(=O)N(C)C(CC(C)C)C(=O)NC(C(C)O)C(=O)N(C)C(C(C)C)C(=O)NC(C)C(=O)N(C)C(CC(C)C)C(=O)OC1C", "strain or isolate": "ATCC 90028", "value": "2.5 µg/mL"}
{"smiles": "Nc1[nH]c(=O)ncc1F", "strain or isolate": "ATCC64550", "value": "1 µg/mL"}
{"smiles": "C[C@@H]1[C@H](O)[C@@H](C)/C=C/C=C/C=C/C=C/C=C/C=C/C=C/[C@H](O[C@@H]2O[C@H](C)[C@@H](O)[C@H](N)[C@@H]2O)C[C@@H]2O[C@](O)(C[C@@H](O)C[C@@H](O)[C@H](O)CC[C@@H](O)C[C@@H](O)CC(=O)O[C@H]1C)C[C@H](O)[C@H]2C(=O)O", "strain or isolate": "ATCC 90028", "value": "3.1–6.3 µM"}
{"smiles": "Cc1ccc(-c2cc(-c3ccc(Cl)cc3)nc(/N=C3\\C(=O)N(CN4CCOCC4)c4ccccc43)n2)cc1", "value": "39.06 µg/mL"}
{"smiles": "OC(Cn1cncn1)(Cn1cncn1)c1ccc(F)cc1F", "strain or isolate": "E81113", "value": "50 µg/mL"}
{"smiles": "COC1CC2CCC(C)C(O)(O2)C(=O)C(=O)N2CCCCC2C(=O)OC(C(C)CC2CCC(O)C(OC)C2)CC(=O)C(C)/C=C(\\C)C(O)C(OC)C(=O)C(C)C[C@](C)(N(O)C(=O)NN2CCCCC2)/C=C/C=C/C=C/1C", "strain or isolate": "TOR1-1/TOR1", "value": ">100 µg/mL"}
{"smiles": "CCC(C)CC(C)CCCCCCCCC(=O)N[C@H]1C[C@@H](O)[C@H](NCCN)NC(=O)[C@@H]2[C@@H](O)CCN2C(=O)[C@H]([C@H](O)CCN)NC(=O)[C@H]([C@H](O)[C@@H](O)c2ccc(O)cc2)NC(=O)[C@@H]2C[C@@H](O)CN2C(=O)[C@H]([C@@H](C)O)NC1=O", "strain or isolate": "Isolate 489 (AMB FCZ 5FC-susceptible)", "value": "0.25 µg/mL"}
{"smiles": "Cc1ccc(-c2cc(-c3ccc(Cl)cc3)nc(/N=C3\\C(=O)N(CN4CCCCC4)c4ccc(Cl)cc43)n2)cc1", "value": "78.12 µg/mL"}
{"smiles": "CCCCCCCC(=O)CCCCCC/C=C/C(C(=O)NC(Cc1ccc(OCC=C(C)C)cc1)C(=O)O)C(O)(CC(=O)O)C(=O)O", "strain or isolate": "TIMM0136", "value": "12.5 µg/mL"}
{"smiles": "C=C1C(=O)OC2C3C4(OC4[C@H](O)[C@@]3(C)O)C(O)(O)C[C@@H](O)[C@@H]12", "value": "20 µg/mL"}
{"smiles": "O=C(NN1C(=O)/C(=C\\c2cccc([N+](=O)[O-])c2)SC1c1cccc(Br)c1)c1ccc(-c2ccccc2)cc1", "strain or isolate": "MTCC 8184", "value": "1.56 µg/mL"}
{"smiles": "Cc1ccc(-c2cc(-c3ccc(Cl)cc3)nc(/N=C3\\C(=O)N(CN4CCOCC4)c4ccc(Cl)cc43)n2)cc1", "value": "78.12 µg/mL"}
{"smiles": "CC1=C2[C@@H](OC(=O)/C=C/c3ccccc3)[C@H](C(C)C)CC[C@]2(C)[C@@H](O)CC1=O", "strain or isolate": "ATCC 10231", "value": "16 µg/mL"}
{"smiles": "COc1cc(CCCO[C@@H]2O[C@H](CO)[C@@H](O)[C@H](O)[C@H]2O)cc2cc(-c3ccc4c(c3)OCO4)oc12", "strain or isolate": "ICB 12", "value": "15 µg/mL"}
{"smiles": "Cc1ccc(-c2cc(-c3ccc(Cl)cc3)nc(/N=C3\\C(=O)N(CN4CCCCC4)c4ccc(Br)cc43)n2)cc1", "value": "19.53 µg/mL"}
{"smiles": "O=C(Nc1ccc2oc(-c3ccc(F)cc3)nc2c1)OCc1ccccc1", "strain or isolate": "RSKK 628", "value": "25 µg/mL"}
{"smiles": "COC1C=CC(=O)C(C)(c2ccc(-c3ccccc3)cc2)O1", "value": "16 µg/mL"}
{"smiles": "Cc1ccc(-c2cc(-c3ccc(Cl)cc3)nc(/N=C3\\C(=O)Nc4ccc(Cl)cc43)n2)cc1", "value": "78.12 µg/mL"}
{"smiles": "CC1(O)CC(=O)c2c(cc3ccc(-c4ccc5cc6c(c(O)c5c4O)C(=O)CC(C)(O)C6)c(O)c3c2O)C1", "value": "16 µg/mL"}
{"smiles": "C[N+](C)(C)CCOP(=O)([O-])OCCCCCCCCCCCCCCCCCCCCCCCCOP(=O)([O-])OCC[N+](C)(C)C", "strain or isolate": "B311", "value": "6.25 µg/mL"}
{"smiles": "c1csc(-c2nnc(C3C4CC5CC(C4)CC3C5)o2)c1", "strain or isolate": "IFO 0583", "value": "2 µg/mL"}
{"smiles": "COC(=O)CNC1=CC(=O)c2ccccc2C1=O", "value": "50 µg/mL"}
{"smiles": "Clc1ccccc1C(c1ccccc1)(c1ccccc1)n1ccnc1", "strain or isolate": "MTCC 8184", "value": "0.1 µg/mL"}
{"smiles": "CCc1ccc(-c2nc3cc(NC(=O)OCc4ccc(Cl)cc4)ccc3o2)cc1", "strain or isolate": "RSKK 628", "value": "25 µg/mL"}
{"smiles": "COC(=O)C(CCSC)NC1=CC(=O)c2ccccc2C1=O", "value": ">50 µg/mL"}
{"smiles": "Cc1c(O)cccc1C(=O)N[C@@H](CSc1ccccc1)[C@H](O)CN1C[C@H]2CCCC[C@H]2C[C@H]1C(=O)NC(C)(C)C", "strain or isolate": "I129A", "value": "64 µg/mL"}
{"smiles": "COC1CC2CCC(C)C(O)(O2)C(=O)C(=O)N2CCCCC2C(=O)OC(C(C)CC2CCC(O)C(OC)C2)CC(=O)C(C)/C=C(\\C)C(O)[C@@](OC)(N(O)C(=O)OCC(C)C)C(=O)C(C)CC(C)/C=C/C=C/C=C/1C", "strain or isolate": "RBP1/RBP1", "value": ">100 µg/mL"}
{"smiles": "O=C(Nc1ccc2oc(-c3ccccc3)nc2c1)OCc1ccccc1", "strain or isolate": "RSKK 628", "value": "50 µg/mL"}
{"smiles": "COC1OC(C)(c2ccc(-c3ccccc3)cc2)C(O)CC1N1CCN(C)CC1", "value": ">32 µg/mL"}
{"smiles": "O=C(NN1C(=O)/C(=C\\c2cccc(Br)c2)SC1c1cccc(Br)c1)c1ccc(-c2ccccc2)cc1", "strain or isolate": "MTCC 8184", "value": "1.56 µg/mL"}
{"smiles": "CCc1ccc(-c2nc3cc(NC(=O)SCc4ccccc4)ccc3o2)cc1", "strain or isolate": "RSKK 628", "value": "25 µg/mL"}
{"smiles": "O=C(NN1C(=O)/C(=C\\c2cccc([N+](=O)[O-])c2)SC1c1ccc(F)cc1)c1ccc(-c2ccccc2)cc1", "strain or isolate": "MTCC 8184", "value": "6.25 µg/mL"}
{"smiles": "CC1(O)CC(=O)c2c(cc3ccc(-c4c5c(c(O)c6c(O)cccc46)C(=O)CC(C)(O)C5)c(O)c3c2O)C1", "value": "8 µg/mL"}
{"smiles": "COc1ccc(-c2cc3cc(CCCO[C@@H]4O[C@H](CO)[C@@H](O)[C@H](O)[C@H]4O)cc(OC)c3o2)cc1OC", "strain or isolate": "ICB 12", "value": "20 µg/mL"}

Repeating the first 4 entries:

smiles	strain or isolate	value
CCCCCCCCCCCCC(OC)C(=O)O	ATCC 14053	110 µM
Cc1ccc(-c2cc(-c3ccc(Cl)cc3)nc(/N=C3\C(=O)N(CN(C)C)c4ccc(Cl)cc43)n2)cc1		78.12 µg/mL
CCC(C)C(NC)C(=O)NC1C(=O)OC(C(C)C)C(=O)OC(CC(C)C)C(=O)NC(C(C)CC)C(=O)N(C)C(CC(C)C)C(=O)NC(C(C)O)C(=O)N(C)C(C(C)C)C(=O)NC(C)C(=O)N(C)C(CC(C)C)C(=O)OC1C	ATCC 90028	2.5 µg/mL
Nc1[nH]c(=O)ncc1F	ATCC64550	1 µg/mL

Rows are shuffled and stem from different studies. a–b is a range or a potency band.